Measured values from several laboratories, pooled; numbers as filed in NIAID ChemDB.

Shared fields: toxicity to cultured cells; cell line: MRC-5; measure: CC50

Lines come from different laboratories, so protocols vary. CCn: concentration that lowers growth or viability of the cells by n%.

CCc1cn([C@H]2C[C@H](O)[C@@H](CO)O2)c(=S)nc1N ; value: >277.4 µM
O=[N+]([O-])c1ccc(COC2=NS(=O)(=O)N(Cc3ccc([N+](=O)[O-])cc3)c3ccccc32)cc1 ; value: >53 µM
Nc1nc2c(ncn2CCC(CO)CO)c(=O)[nH]1 ; value: >158 µM
COc1ccc(CN2c3ccccc3C(OCc3ccccc3)=NS2(=O)=O)cc1 ; value: >61 µM
C#CCN1C(=O)c2ccccc2N(Cc2ccc(Cl)cc2)S1(=O)=O ; value: 13.8 µM
CCCc1cn([C@H]2C[C@H](O)[C@@H](CO)O2)c(=S)nc1N ; value: >277.4 µM
CCN1C(=O)c2ccccc2N(Cc2ccc(Cl)c(Cl)c2)S1(=O)=O ; value: 6.4 µM
CCCCCCCCCCCCCCCCOCCCOP(=O)(O)OCC(CO)CCn1cnc2c(=O)[nH]c(N)nc21 ; value: >300 µM
CCCCN1C(=O)c2ccccc2N(C(=O)c2ccc(OC)cc2)S1(=O)=O ; value: 57.2 µM
Cc1cn([C@H]2C[C@H](O)[C@@H](CO)O2)c(=S)[nH]c1=O ; value: >302.6 µM
CN1C(=O)c2ccccc2N(Cc2ccc(Cl)cc2)S1(=O)=O ; value: 2.9 µM
O=C1c2ccccc2N(Cc2ccc(Cl)cc2)S(=O)(=O)N1Cc1ccc(Cl)cc1 ; value: >56 µM
Nc1nc(=S)n([C@@H]2O[C@H](CO)[C@@H](O)[C@@H]2O)cc1/C=C/c1ccccc1 ; value: >213 µM
O=C1c2ccccc2N(Cc2ccc(C(F)(F)F)cc2)S(=O)(=O)N1Cc1ccccc1 ; value: >56 µM
CCCCN1C(=O)c2ccccc2N(C(=O)c2ccc(Cl)cc2)S1(=O)=O ; value: 56.7 µM
O=C1c2ccccc2N(Cc2ccc(Cl)c(Cl)c2)S(=O)(=O)N1Cc1ccccc1 ; value: >56 µM
O=C1c2ccccc2N(Cc2ccc(Cl)cc2)S(=O)(=O)N1CC1CCCCC1 ; value: 11.9 µM
CCc1cn([C@@H]2O[C@H](CO)[C@@H](O)[C@@H]2O)c(=S)[nH]c1=O ; value: >264.9 µM
O=C1c2ccccc2N(Cc2cccnc2)S(=O)(=O)N1Cc1ccccc1 ; value: >66 µM

Repeating the first 3 entries:

compound,value
CCc1cn([C@H]2C[C@H](O)[C@@H](CO)O2)c(=S)nc1N,>277.4 µM
O=[N+]([O-])c1ccc(COC2=NS(=O)(=O)N(Cc3ccc([N+](=O)[O-])cc3)c3ccccc32)cc1,>53 µM
Nc1nc2c(ncn2CCC(CO)CO)c(=O)[nH]1,>158 µM